From patent US10912840B2 (priority 2012, dated 2021)

Test: general procedure: Fmoc solid-phase peptide synthesis; H-Cys(4-methoxytrityl)-2-chlorotrityl-resin; PyBOP, diisopropylethylamine
Conditions: coupling step

Substance “2-(tubulysin B)hydrazinecarboxylic acid (3′nitropyridyl-2′-yl)disulfanylethyl ester” has a step yield of 89% yield.
